# Source: PubChem BioAssay AID1376 (SRMLSC, 2008)
# Amino acid sequences for entries named in this document (tags omitted). A change or cut given only in a name is not applied to a line headed by its entry.
# UniProt P9WMN3: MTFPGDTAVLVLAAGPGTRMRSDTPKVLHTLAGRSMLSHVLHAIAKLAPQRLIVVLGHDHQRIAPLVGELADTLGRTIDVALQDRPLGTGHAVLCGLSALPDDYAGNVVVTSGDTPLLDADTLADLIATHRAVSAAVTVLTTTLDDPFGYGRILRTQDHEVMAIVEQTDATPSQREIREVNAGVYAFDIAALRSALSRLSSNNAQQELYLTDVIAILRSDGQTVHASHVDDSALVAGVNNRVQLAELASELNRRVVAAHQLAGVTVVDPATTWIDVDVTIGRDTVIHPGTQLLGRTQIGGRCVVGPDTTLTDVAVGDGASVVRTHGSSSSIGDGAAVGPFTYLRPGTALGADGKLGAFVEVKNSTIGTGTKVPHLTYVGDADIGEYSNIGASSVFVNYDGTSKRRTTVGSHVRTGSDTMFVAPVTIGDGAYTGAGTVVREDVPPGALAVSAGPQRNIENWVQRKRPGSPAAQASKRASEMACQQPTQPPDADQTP
# This is a selection; strong and weak results do not stand in their true shares. Entries with a potency or affinity are not part of this list. The source made the active and inactive calls. No stated cut-off is given here; in the data, active means inhibition above about 13%; inconclusive means no clear call, values can overlap the other calls; inactive means below that.
# Biological target: Bifunctional protein GlmU (Mycobacterium tuberculosis (strain ATCC 25618 / H37Rv)) (UniProt P9WMN3)
# Assay: inhibition of mycobacterial GlmU enzyme – biochemical, glucosamine-1-phosphate acetyltransferase (AID 1376);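 further: 0% = complete reaction with vehicle and 100% = reaction without substrate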
# Conditions: M. tuberculosis GlmU acetyltransferase enzyme assay; active compounds read high;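 tested at 30 µM in the primary screen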
row,Compound,inhibition
1,COc1ccc(C2=NCC(CBr)S2)cc1 (stereo not drawn),inactive: 7.41%
2,Cc1ccc(NP(=O)(Oc2ccccc2)Oc2ccccc2)nc1,inactive: 0.11%
3,O=[N+]([O-])c1cc([N+](=O)[O-])c(CCNc2ccccc2)c([N+](=O)[O-])c1,inactive: 0.7%
4,CCc1nc2c(n1)c1c(non1O)c1c2no[n+]1[O-],inactive: 2.27%
5,CC(=O)N1C2C3N(C(C)=O)C1C1N(C(C)=O)C(C(N1C(C)=O)N3C(C)=O)N2C(C)=O,inactive: -0.34%
6,O=[N+]([O-])c1cccc2n[nH]nc12,inactive: 0.76%
7,CCN(/C(=N/P(=O)(N1CCOCC1)N1CCOCC1)N1CCOCC1)c1ccc(OC)cc1,inactive: -2.93%
8,Nc1ccc([As](=O)(O)c2ccc(N)cc2)cc1,inactive: -0.73%
9,C[N+]1=C2C=CC=CC=C2SC12C([N+](=O)[O-])=CC([N+](=O)[O-])=C[C-]2[N+](=O)[O-] (stereo not drawn),inactive: -1.86%
10,CC1CCN(C(=O)Oc2c(Cl)cc(Cl)c3cccnc23)CC1,inactive: -3.23%
11,CC(C)=N/N=C(\N)N[N+](=O)[O-],inactive: -1.73%
12,CN(C)C(=O)OCCc1n(C)cc[n+]1C,inactive: 1.98%
13,O=C(Nc1cc([As](=O)(O)O)ccc1O)c1ccccc1,inactive: 2.33%
14,O=[N+]([O-])c1ncn(CCn2ncnc2[N+](=O)[O-])n1,inactive: 3.44%
15,CC(C)(C)C(=O)NC(Sc1ccncn1)C(Cl)(Cl)Cl (stereo not drawn),inactive: 11.1%
16,O=C(O)CNc1ccc([As](=O)(O)O)cc1,inactive: 0.39%
17,O=[N+]([O-])c1cccc(NC2=NCC(CBr)S2)c1 (stereo not drawn),inactive: 4.92%
18,O=P(Nc1nc2ccc(Cl)cc2s1)(c1ccccc1)c1ccccc1,inactive: 0.23%
19,CC(=O)Nc1ccc([As](=O)(O)O)cc1,inactive: 5.01%
20,Cc1cc(SC(NC(=O)c2ccc(F)cc2)C(Cl)(Cl)Cl)ncn1 (stereo not drawn),inactive: 9.96%
21,CCOP(=O)(Nc1ccccc1)OCC,inactive: 0.74%
22,CN(C(=O)Cc1ccc(Cl)c(Cl)c1)[C@H]1CCCC[C@@H]1N1CCCC1,inactive: 0.05%
23,Cc1ccc(NP(=O)(Oc2ccccc2F)Oc2ccccc2F)nc1,inactive: 0.13%
24,Nc1cccc2ccc([As](=O)(O)O)cc12,inactive: 3.47%
25,CCN(N=Nc1nonc1N)c1nonc1N,inactive: 1.73%
26,Cc1ccc(N/C(=N/P(=O)(N2CCOCC2)N2CCOCC2)N2CCOCC2)cc1,inactive: -2.29%

row,Compound,inhibition
1,NC(=O)c1cc([N+](=O)[O-])cc([N+](=O)[O-])c1N,inactive: 2.42%
2,CN1CCCC(OC(=O)C(c2ccccc2)c2ccccc2)C1 (stereo not drawn),inactive: -0.13%
3,Clc1ccc(Cl)c(NC2=NCC(CBr)S2)c1 (stereo not drawn),inactive: -0.3%
4,COc1ccccc1OP(=O)(Nc1ccc(C)cn1)Oc1ccccc1OC,inactive: -1.07%
5,Cc1ccc(OP(=O)(Nc2nccs2)Oc2ccc(C)cc2)cc1,inactive: 1.37%
6,Oc1ccccc1CNc1ccccn1,inactive: -3.52%
7,O=C(NC(Sc1ccncn1)C(Cl)(Cl)Cl)c1ccccc1 (stereo not drawn),inactive: 9.6%
8,Cc1c2non([O-])c-2c(C)[n+](=O)[n+]1[O-],inactive: -3.11%
9,Nc1cc(N)c2nonc2c1[N+](=O)[O-],inactive: 0.09%
10,CC(C)CC(=O)NC(Sc1ccc(Cl)cc1)C(Cl)(Cl)Cl (stereo not drawn),inactive: -0.17%
11,O=P1(Nc2nc3ccc(Cl)cc3s2)COc2ccccc2O1 (stereo not drawn),inactive: -2.18%
12,CCOc1ccc(C2=NCC(CBr)S2)cc1 (stereo not drawn),inactive: -1.9%
13,CC(C)(C)C(=O)NC(Sc1ccccc1)C(Cl)(Cl)Cl (stereo not drawn),inactive: 0.98%
14,C[C@H]1OP(=O)(Oc2ccccc2)C[C@@H]2O[C@@H]21 (stereo partly drawn),inactive: -0.79%
15,C[C@@H]1C=CCP(=O)(Oc2ccccc2)O1 (stereo partly drawn),inactive: 0.46%
16,CC(=O)Nc1ccc([As](=O)(O)O)c(O)c1,inactive: 1.23%
17,CC(=O)Nc1ccc(Oc2c([N+](=O)[O-])cc([N+](=O)[O-])cc2[N+](=O)[O-])cc1,inactive: -0.03%
18,c1ccc(-c2nn[nH]n2)c(-c2nn[nH]n2)c1,inactive: -2.24%
19,CCOC(=O)NC(Sc1ccccc1)C(Cl)(Cl)Cl (stereo not drawn),inactive: 2.33%
20,Cc1ccc(NP(=O)(Oc2cccc(C)c2)Oc2cccc(C)c2)nc1,inactive: -1.06%
21,O=C(NC1CCS(=O)(=O)C1)NP(=S)(Oc1ccccc1)Oc1ccccc1 (stereo not drawn),inactive: 4.3%
22,CCNC(=S)/N=C(\N)N[N+](=O)[O-],inactive: -32.9%
23,CCC(=O)N1C2C3N(C(=O)CC)C1C1N(C(=O)CC)C(C(N1C(=O)CC)N3C(=O)CC)N2C(=O)CC,inactive: -0.02%
24,COC(=O)c1cc2c(s1)N=C(c1ccccc1)N(C)P2(=O)N1CCOCC1 (stereo not drawn),inactive: -0.85%
25,Cc1ccc(OP(=O)(Nc2ccccn2)Oc2ccc(C)cc2)cc1,inactive: 3.99%
26,CC(=O)NC(SC(=S)N(CC(C)C)CC(C)C)C(Cl)(Cl)Cl (stereo not drawn),inactive: -3.8%

row,Compound,inhibition
1,Cc1ccccc1OP(=O)(Nc1ccccn1)Oc1ccccc1C,inactive: 3.4%
2,O=c1c2cc([N+](=O)[O-])ccc2[nH]c2c([N+](=O)[O-])cc([N+](=O)[O-])cc12,inactive: 9.56%
3,CN(C)C(=O)Oc1noc2ccccc12,inactive: -3.42%
4,O=P(Nc1ccccn1)(c1ccc(Br)cc1)c1ccc(Br)cc1,inactive: -0.45%
5,O=P(Nc1nc2ccccc2s1)(c1ccccc1)c1ccccc1,inactive: 2.49%
6,C[C@H]1OP(=O)(Oc2ccccc2)[C@H](O)[C@H](O)[C@H]1N=[N+]=[N-] (stereo partly drawn),inactive: -2.53%
7,O=[As](O)(c1ccccc1)c1ccc(O)cc1,inactive: 1.07%
8,O=[N+]([O-])c1ncn(CCn2cnc([N+](=O)[O-])n2)n1,inactive: -6.65%
9,CC(=O)NC(SC(=S)N(C)C)C(Cl)(Cl)Cl (stereo not drawn),inactive: 4.81%
10,O=C(OC1CN2CCC1CC2)c1cccc(Cl)c1 (stereo not drawn),inactive: 0.54%
11,C(Cc1nn[nH]n1)Cc1nn[nH]n1,inactive: 3.28%
12,Nc1ccc([As](=O)(O)c2ccc([N+](=O)[O-])cc2)cc1,inactive: 6.19%
13,O=P(Nc1nccs1)(c1ccccc1)c1ccccc1,inactive: -1.64%
14,CC(C)C(=O)NC(Sc1ccccc1)C(Cl)(Cl)Cl (stereo not drawn),inactive: 0.2%
15,c1nnnn1CCn1cnnn1,inactive: -1.01%
16,O=P1(Nc2ccccn2)COc2ccccc2OC1,inactive: 1%
17,CCOP(=O)(Nc1ccc(C)cn1)OCC,inactive: 3.83%
18,CN(CCCl)Cc1cc(Cl)c(NC2=NCCN2)c(Cl)c1,inactive: 1.33%
19,Clc1n[nH]nc1-c1nn[nH][15n]1,inactive: 1.85%
20,CC(C)(C)C(=O)NC(Sc1ncccn1)C(Cl)(Cl)Cl (stereo not drawn),inactive: -3.62%
21,CN(C(=O)Cc1ccc(Cl)c(Cl)c1)[C@@H]1CCCC[C@H]1N1CCCC1,inactive: -6.88%
22,CC(C)/C=N\N=C(\N)N[N+](=O)[O-],inactive: 0.62%
23,O=[As](O)(c1ccccc1Br)c1ccccc1Br,inactive: 8.78%
24,CC1(CBr)Cn2c(nc3ccccc3c2=O)S1 (stereo not drawn),inactive: 3.12%
25,Cc1nn(-c2ccccc2)c2c1P(=O)(N1CCOCC1)N(C)C(c1ccccc1)=N2 (stereo not drawn),inactive: 9.83%
26,CC1CCC(C(C)C)C(OP(=O)(Nc2ccccn2)c2ccccc2)C1 (stereo not drawn),inactive: -2.19%

row,Compound,inhibition
1,CN(C)C1(CNC(=O)c2ccc(S(C)(=O)=O)cc2)CCCCC1,inactive: -0.2%
2,O=C(/C=C/c1ccccc1)OC1CN2CCC1CC2 (stereo not drawn),inactive: -5%
3,O=P1(Nc2ncccn2)COc2ccccc2OC1,inactive: 1.08%
4,Nc1cccc([As](=O)(O)c2ccccc2)c1,inactive: 3.76%
5,O=[As](O)(c1cccs1)c1cccs1,inactive: 0.6%
6,Cc1ccc(OCC(=O)OC2CN3CCC2CC3)cc1 (stereo not drawn),inactive: -4.66%
7,O=P1(Nc2ccc(Br)cn2)COc2ccccc2OC1,inactive: 4.09%
8,CCOP1(=S)c2c(C)nn(CCC#N)c2N=C(c2ccccc2F)N1C (stereo not drawn),inactive: 1.57%
9,O=P(Nc1nccs1)(Oc1ccccc1)Oc1ccccc1,inactive: -4.41%
10,O=P(Nc1nccs1)(c1ccccc1)c1nc2ccccc2s1 (stereo not drawn),inactive: 4.81%
11,CS(=O)(=O)c1cc([N+](=O)[O-])c2no[n+]([O-])c2c1,inactive: -3.47%
12,O=C(O)COc1ccc([As](=O)(O)O)cc1[N+](=O)[O-],inactive: -4.82%
13,Nc1ccccc1[As](=O)(O)c1ccccc1,inactive: 4.97%
14,NC(=O)Nc1ccc([As](=O)(O)O)cc1,inactive: 10.3%
15,CN(C(=O)Cc1ccccc1)[C@@H]1CC[C@]2(CCCO2)C[C@H]1N1CCCC1,inactive: 3.84%
16,CCOP1(=S)c2c(C)nn(CCC#N)c2N=C(c2ccc(F)cc2)N1C (stereo not drawn),inactive: 6.46%
17,O=[N+]([O-])c1ccc2c(c1)nnn2O,inactive: 4.4%
18,CN(C(=O)Cc1ccc(Cl)c(Cl)c1)[C@H]1CC[C@@]2(CCCO2)C[C@@H]1N1CCCC1,inactive: -9.11%
19,O=C(OC1CN2CCC1CC2)c1ccc(Cl)cc1 (stereo not drawn),inactive: 2.84%
20,O=[As](O)(O)c1cccnc1,inactive: 1.65%
21,COc1cc(C(=O)NCC2(N3CCOCC3)CCCCC2)cc(Cl)c1OC(C)C,inactive: 2.12%
22,Cc1cccc(OCC(=O)OC2CN3CCC2CC3)c1 (stereo not drawn),inactive: -0.16%
23,O=[As](O)(c1cccc(O)c1)c1cccc(O)c1,inactive: 0.23%
24,Nc1cccc2c([As](=O)(O)O)cccc12,inactive: 2.82%
25,Cc1ccc(NCCc2c([N+](=O)[O-])cc([N+](=O)[O-])cc2[N+](=O)[O-])cc1,inactive: 1.69%
